Assay results from patent US20240124545A1, “COMPOSITIONS AND METHODS RELATING TO THE TREATMENT OF DISEASES” (ILC THERAPEUTICS LIMITED, priority 2021, published 2024).

Test system: HeLa-CD4-βgal cells
Experiment: XTT viability (cytotoxicity) assay, uninfected HeLa-CD4-βgal cells (Experiment 4)
Conditions: control antiviral 0.2 μM, raw absorbance 490 nm

CC(C)OC(=O)[C@H](C)N[P@](=O)(CO[C@H](C)Cn1cnc2c(N)ncnc21)Oc1ccccc1 [TAF, tenofovir alafenamide]
Viability of Uninfected HeLa-CD4-β gal Cells (A490): 0.896
